Measured values from several laboratories, pooled; numbers as filed in NIAID ChemDB.

All rows: growth or infection tests; species: Mycobacterium tuberculosis

Percent inhibition refers to the dose given; in toxicity tests it is the harm to the cells. ECn: concentration that inhibits the pathogen or its effect by n%. Conditions beyond the fields shown may differ between rows. a–b is a range or a potency band. MIC bound: limit read from a one-dose screen. Blank or dashed fields: not listed here. A number after MIC or MFC names an inhibition level or a share of isolates.

compound	read by	mutations	measure	strain or isolate	dose	result
COc1cc(C)c(CC(NC(=O)C2CCCCC2)C(=O)O)c(OC)c1	BACTEC		MIC bound	H37Rv		>12.5 µg/mL
CC(=O)NC[C@H]1CN(c2cc(F)c(N3CC4NC(=O)NC4C3)c(F)c2)C(=O)O1	resazurin		MIC100	H37Rv		0.31 µM
CC(C)(C)c1ccc(CO[C@@H]2COc3nc([N+](=O)[O-])cn3C2)cc1			MIC	H37Rv		0.03 µg/mL
Cc1ccc(NC(=O)NNC(=O)CNC(=O)Nc2n[nH]c(=S)s2)c(C)c1	BACTEC		MIC bound	H37Rv		>12.5 µg/mL
CCCCCCCCCCCCCCCCCSCCCCCC(=O)O			MIC50	H37Ra		0.63–1 µg/mL
COc1ccc2nc(Oc3ccc(C)cc3)c(C3C(C#N)=C(N)Oc4c3c(=O)oc3ccc(C)cc43)cc2c1			inhibition	H37Rv	250 µg/mL	61%
O=S(=O)(NCCO)c1ccc(-c2nnn(Cc3ccc(F)cc3)n2)cc1	resazurin		MIC	H37Rv		<0.1 µM
CC(C)(C)NC(=O)C1c2ccccc2CCN1c1cc2c(=O)c(C(=O)O)c3n(c2cc1[N+](=O)[O-])CS3	agar	MDR-TB	MIC	H37Rv		1.53 µM
N#CCNS(=O)(=O)c1ccc(-c2nnn(Cc3ccc(F)cn3)n2)cc1	resazurin		MIC	H37Rv		<0.1 µM
O=C(Nc1ccc([N+](=O)[O-])cc1)c1cccnc1Cl			MIC	H37Rv		>20 µg/mL
O=C(O)c1c2n(c3cc([N+](=O)[O-])c(N4CCN(Cc5ccc6c(c5)OCO6)CC4)cc3c1=O)CS2	agar	MDR-TB	MIC	H37Rv		1.57 µM
CC(=O)NC[C@H]1CN(c2ccc(N3C[C@@H]4OC(=O)N[C@@H]4C3)c(F)c2)C(=O)O1	resazurin		MIC100	H37Rv		0.625 µM
CCOC(=O)c1c(C)c(-c2ccccc2)n(CC(=O)N=Nc2c(O)[nH]c3ccccc23)c1C	BACTEC		inhibition	H37Rv	6.25 µg/mL	2%
Cc1ccc2nc(SCc3ccc(F)c(F)c3)[nH]c2c1			MIC	MY 332/88		>32 µM
O=C(c1ccc(Br)cc1)N1CCC2(CC1)OCCc1sccc12			EC50	H37Rv		>100 µM
CCOC(=O)c1c(C)c(-c2ccccc2)n(CC(=O)N/N=C/c2ccc([N+](=O)[O-])o2)c1C	BACTEC		EC50	H37Rv		>6.25 µg/mL
O=C1NC(=S)NC(=O)C1=Cc1ccc([N+](=O)[O-])o1	BACTEC		inhibition	H37Rv	12.5 µg/mL	82%
O=C(NNC(=O)c1cc([N+](=O)[O-])cc([N+](=O)[O-])c1)c1ccncc1	resazurin		MIC	ATTC 27294		2 µg/mL
CCOC(=O)c1cc(-c2ccccc2)n(CCC(=O)NN)c1C	BACTEC		inhibition	H37Rv	6.25 µg/mL	0%
CO[C@H]1/C=C/O[C@@]2(C)Oc3c(C)c(O)c4c(O)c(c(/C=N/N5CCN(C)CC5)c(O)c4c3C2=O)NC(=O)/C(C)=C\C=C\[C@H](C)[C@H](O)[C@@H](C)[C@@H](O)[C@@H](C)[C@H](OC(C)=O)[C@@H]1C			MIC	H37Rv		>20 µg/mL
COc1cc(Cc2cnc(N)nc2N)cc(OC)c1OC			MIC	H37Ra		179 µg/mL
CO[C@H]1/C=C/O[C@@]2(C)Oc3c(C)c(O)c4c(c3C2=O)-c2nc(CC(C)C)[nH]c2C(=NC(=O)/C(C)=C\C=C\[C@H](C)[C@H](O)[C@@H](C)[C@@H](O)[C@@H](C)[C@H](OC(C)=O)[C@@H]1C)C4=O			MIC	H37Rv		0.002 µg/mL
Cc1ccc(Cn2nnc(-c3ccc(S(=O)(=O)NCC(N)=O)cc3)n2)cc1	resazurin		MIC	H37Rv		<0.1 µM
CCOC(=O)c1cc(-c2ccccc2)[nH]c1CC(=O)N/N=C/c1c[nH]c2ccccc12	BACTEC		EC50	H37Rv		>6.25 µg/mL
Cc1cccnc1NC(=O)c1cccnc1Cl			MIC	H37Rv		>20 µg/mL
CCCCc1ccc(CO[C@@H]2COc3nc([N+](=O)[O-])cn3C2)cc1			MIC	W (MDR)		0.03 µg/mL
O=C(Nc1ccccc1[N+](=O)[O-])c1cccnc1Cl			MIC	H37Rv		>20 µg/mL
N#Cc1ccc(Cn2nnc(-c3ccc(S(N)(=O)=O)cc3)n2)cc1	resazurin		MIC	H37Rv		1–5 µM
Cc1ccc(S(=O)(=O)N/N=C(\CC(=O)c2c(C)n([O-])c3ccccc3[n+]2=O)C(=O)Nc2ccccc2C)cc1	BACTEC		MIC	H37Rv		≥12.5 µg/mL
CCOC(=O)c1cc(-c2ccc(C)cc2)n(CC(=O)NN)c1C	BACTEC		EC50	H37Rv		>6.25 µg/mL
Nc1ccc(C(=O)O)c(O)c1			MIC	H37Ra		0.05 µg/mL
O=C(O)c1c2n(c3cc([N+](=O)[O-])c(N4CCN(C(=O)C5COc6ccccc6O5)CC4)cc3c1=O)CS2	agar		MIC	H37Rv		5.97 µM
O=C(Nc1ccc(I)cc1)c1cccnc1Cl			MIC	H37Rv		>20 µg/mL
Cc1ccc2nc(SCc3ccc(C#N)cc3)[nH]c2c1			MIC	MY 332/88		32 µM
CCOc1ccc(C(C2=C(O)c3ccccc3C(=O)C2=O)C2=C(O)c3ccccc3C(=O)C2=O)cc1OC	BACTEC		inhibition	H37Rv	12.8 µg/mL	29%
O=C(N/N=C/c1ccccc1)c1ccncc1	resazurin		MIC	ATTC 27294		3.12 µg/mL
CCCCCCCCCCCCCCCCCCSCCCCC(=O)O			MIC50	H37Ra		0.63–1 µg/mL
CC(C)(C)OC(=O)NC1C2CN(c3cc4c(=O)c(C(=O)O)c5n(c4cc3F)CS5)CC21	agar		MIC	H37Rv		0.87 µM
O=C1NC(=C(c2ccccc2)c2ccccc2)OC1=O	BACTEC		MIC bound	H37Rv		>12.5 µg/mL
COc1ccc2nc(Oc3ccc(Cl)cc3)c(C3C(C#N)=C(N)Oc4c3c(=O)oc3ccc(C)cc43)cc2c1			inhibition	H37Rv	250 µg/mL	27%
COc1cc(/C=C/C(=O)c2ccncc2)cc(OC)c1OC	resazurin		EC90	H37Rv		≥50 µg/mL
COc1ccc(/C=C2/C(=O)N(/C=C3\C(=O)Oc4ccccc4C3=O)C(=NC(C)=O)N2C)cc1OC	BACTEC		MIC bound	H37Rv		>12.5 µg/mL
Cc1cc(CN2CCC3(CC2)OCCc2sccc23)c(C)n1-c1ccc(F)cc1			EC50	H37Rv		1.25 µM
O=C1c2ccccc2-c2nc3ncccc3cc21	resazurin		inhibition	H37Rv	6.25 µg/mL	47%
CCOC(=O)c1c(C)[nH]c(C(=O)NN)c1C	BACTEC		EC50	H37Rv		>6.25 µg/mL
N#CCNS(=O)(=O)c1ccc(-c2nnn(Cc3ccc(F)cc3)n2)cc1	resazurin		MIC	H37Rv		<0.1 µM
NNC(=O)c1ccncc1	absorbance	Isoniazid-resistant	MIC	ATCC 35822		>200 µM
Cc1ccc2nc(SCc3ccccc3)[nH]c2c1			MIC	MY 332/88		62 µM
N[C@@H]1CN(c2c(F)cc3c(=O)c(C(=O)O)cn([C@@H]4C[C@@H]4F)c3c2Cl)CC12CC2			MIC90	23 strains (rifampin- isoniazid-susceptible)		0.1 µg/mL
COc1cc(-c2nnn(Cc3ccc(C#N)cc3)n2)ccc1S(=O)(=O)NCC(N)=O	resazurin		MIC	H37Rv		<0.1 µM
COc1cccc2c1C(=O)c1c(O)c3c(c(O)c1C2=O)C[C@@](O)(C(=O)CO)C[C@@H]3OC1CC(N2CCOCC2)C(O)[C@H](C)O1	resazurin		MIC bound	H37Rv		>6.25 µg/mL
COc1cccc(CSc2nc3ccc(C)cc3[nH]2)c1			MIC	MY 332/88		62 µM
CO[C@H]1/C=C/O[C@@]2(C)Oc3c(C)c(O)c4c(O)c(c5c(c4c3C2=O)NC2(CCN(C)CC2)N=5)=NC(=O)/C(C)=C\C=C\[C@H](C)[C@H](O)[C@@H](C)[C@@H](O)[C@@H](C)[C@H](OC(C)=O)[C@@H]1C			MIC	H37Rv		0.001 µg/mL
COC(=O)C1CSC(c2c(COP(=O)([O-])[O-])cnc(C)c2[O-])N1.[Na+].[Na+].[Na+]	BACTEC		inhibition	H37Rv	12.5 µg/mL	0%
C[C@H]1COc2c(N3CCN(C)CC3)c(F)cc3c(=O)c(C(=O)O)cn1c23			MIC90	22 strains (rifampin- isoniazid-resistant)		6.25 µg/mL
CC=CCOc1cc(NC(=S)OC(C)C)ccc1Cl	resazurin		inhibition	H37Rv	6.25 µg/mL	33%
Cc1ccc(Oc2nc3ccc(C)cc3cc2C2C(C#N)=C(N)Oc3c2c(=O)oc2ccccc32)cc1			inhibition	H37Rv	250 µg/mL	74%
Cc1ccc2[nH]c(=S)[nH]c2c1			MIC	MY 332/88		>250 µM
c1cc2c(s1)CCOC21CCN(Cc2ccc3c(c2)OCO3)CC1			EC50	H37Rv		10 µM
CC(/C=C/c1ccco1)=N\NC(=O)CC#N	BACTEC		inhibition	H37Rv	12.5 µg/mL	0%
c1cc2c(s1)CCOC21CCNCC1			EC50	H37Rv		>100 µM
O=C(Nc1ccccc1)c1cccnc1Cl			MIC	H37Rv		>20 µg/mL
CCOC(=O)c1cc(-c2ccc(OC)cc2)n(CC(=O)N/N=C/c2ccc([N+](=O)[O-])o2)c1C	BACTEC		inhibition	H37Rv	6.25 µg/mL	45%
Nc1ccc(/C=C/C(=O)c2ccncc2)cc1	resazurin		EC90	H37Rv		≥50 µg/mL
NNC(=O)c1ccncc1			MIC90	23 strains (rifampin- isoniazid-susceptible)		1.56 µg/mL
CCCCCCCCCCCCNC(=O)c1ccc[n+](Cc2ccc(Cl)c(Cl)c2)c1.[Cl-]	BACTEC		MIC	H37Rv		≥12.5 µg/mL
COc1cc2c(cc1OC)CN(c1cc3c(=O)c(C(=O)O)c4n(c3cc1F)CS4)CC2	agar		MIC	H37Rv		3.53 µM
NC1C(=O)OC(C(O)CO)C1O	BACTEC		MIC bound	H37Rv		>12.5 µg/mL
Cc1ccc2nc(SCc3ccccc3Cl)[nH]c2c1			MIC	MY 332/88		32 µM
COC(=O)NC[C@H]1CN(c2cc(F)c(N3CC4NC(=O)OC4C3)c(F)c2)C(=O)O1	resazurin		MIC100	H37Rv		0.31 µM
O=[N+]([O-])c1cn2c(n1)OC[C@@H](OCc1ccc(OC(F)(F)F)cc1)C2			MIC	Drug-resistant		0.06 µg/mL
Oc1ccc2c(c1)OC[C@]1(O)Cc3cc(O)c(O)cc3[C@H]21	BACTEC		MIC	H37Rv		≥128 µg/mL
Cc1ccc2nc(SCc3ccc(Cl)c(Cl)c3)[nH]c2c1			MIC	MY 332/88		32 µM
COc1ccc(-c2oc3cc(O)cc(O)c3c(=O)c2OC)cc1	BACTEC		inhibition	H37Rv	12.5 µg/mL	12%
Cc1ccc(/C=C/C(=O)c2ccncc2)cc1	resazurin		EC90	H37Rv		≥6.25 µg/mL
N#Cc1ccc(Cn2nnc(-c3ccc(S(=O)(=O)NCCO)cc3)n2)cc1	resazurin		MIC	H37Rv		<0.1 µM
CCCCN1C(=O)C(=O)N(c2ccccc2C(F)(F)F)C1=O	BACTEC		inhibition	H37Rv	12.5 µg/mL	29%
CO[C@H]1/C=C/O[C@@]2(C)Oc3c(C)c(O)c4c(O)c(c5c(c4c3C2=O)NC2(CCNCC2)N=5)=NC(=O)/C(C)=C\C=C\[C@H](C)[C@H](O)[C@@H](C)[C@@H](O)[C@@H](C)[C@H](OC(C)=O)[C@@H]1C			MIC	H37Rv		0.004 µg/mL
CC[C@@H](O)C[C@H]1CCC[C@@]2(C[C@@H]3OC(=O)/C=C/[C@@](C)(O)[C@@H](O)[C@H](C)[C@@H](O)[C@H](OC4CCC(N(C)C)C(C)O4)[C@@H](O)[C@](C)(O)CCCCC/C=C/[C@@H]4CC(C)(C)O[C@@]4(O)C[C@H](O2)[C@H]3C)O1	resazurin		MIC	H37Rv		>6.25 µg/mL
CN[C@H](CC(C)C)C(=O)N[C@H]1C(=O)N[C@@H](CC(N)=O)C(=O)N[C@H]2C(=O)N[C@H]3C(=O)N[C@H](C(=O)N[C@H](C(=O)O)c4cc(O)cc(O)c4-c4cc3ccc4O)[C@H](O)c3ccc(c(Cl)c3)Oc3cc2cc(c3O[C@@H]2O[C@H](CO)[C@@H](O)[C@H](O)[C@H]2O[C@H]2C[C@](C)(N)[C@H](O)[C@H](C)O2)Oc2ccc(cc2Cl)[C@H]1O	broth dilution		MIC	H37Rv		100–200 µg/mL
OC(c1cc(C(F)(F)F)nc2c(Cl)cc(Cl)cc12)C1CCCCN1	resazurin		MIC	H37Rv		3.13 µg/mL
Cc1ccc2nc(SCc3cccc(Br)c3)[nH]c2c1			MIC	MY 332/88		62 µM
CC(=O)OC1CN2CCC(O)C2C(O)C1O	BACTEC		MIC bound	H37Rv		>12.5 µg/mL
O=C(O)c1c2n(c3cc(F)c(N4CCN(Cc5ccc6c(c5)OCO6)CC4)cc3c1=O)CS2	agar	MDR-TB	MIC	H37Rv		13.31 µM